Compound potency records, mixed from different reports. Data source: NIAID ChemDB in PubChem.

Common to all: growth or infection tests; agent: HIV-1; cells: MT-4; read-out: EC50

ECn is the concentration giving n% inhibition of infection, replication or growth. Neighbouring rows are from separate reports. Blank or dashed fields: not listed here.

smiles	strain	mutations	method	value
CC(C)CN(C[C@@H](O)[C@H](Cc1ccccc1)NC(=O)OCc1cncs1)S(=O)(=O)c1ccc2ncn(CCc3ccccc3)c2c1	LAI WT		cytopathic effect / MTT	0.1 µM
Cc1ccc(CNC(=O)c2nc3n(c(=O)c2O)CCN(C2CC2)CC3N(C)C(=O)C(=O)N(C)C)cc1Cl			p24	<1 µM
CC(C)n1c(=O)c(O)c2n(c1=O)CCN(Cc1ccc3ccccc3n1)C2=O			p24	<10 µM
CCc1c(Cc2ccccc2C)n(COCC#Cc2ccc(NC(=O)CBr)cc2)c(=O)[nH]c1=O	IIIB	EFV-resistant (K103R V179D P225H)	MTT	>41 µM
CC1(C)c2nc(C(=O)NCc3ccc(F)cc3)c(O)c(=O)n2CCN1Cc1ncco1			p24	<1 µM
COCCn1c(C)c(C)c2c(-c3ccc(Cl)cc3)c([C@H](OC(C)(C)C)C(=O)O)c(C)nc21	IIIB		MTT	0.00631 µM
Cc1cn([C@H]2C=C[C@@H](CO)O2)c(=O)[nH]c1=O	RD 05-RT-41L 215D Recombinant		cytopathic effect / MTT	0.23 µM
CNc1nc(-c2ccc(S(=O)(=O)N(CC(C)C)C[C@@H](O)[C@H](Cc3ccccc3)NC(=O)COc3c(C)cccc3C)cc2)cs1	LAI		cytopathic effect / MTT	1.259 µM
CC(C)n1c(=O)c(O)c2n(c1=O)C(CCN1CCc3ccccc3C1)CN(Cc1ccc(F)cc1)C2=O			p24	<10 µM
O=C1Nc2ccc(Cl)cc2[C@@](C#CC2CC2)(C(F)(F)F)O1		K103N		0.0652 µM
Cc1nc2c(c(C)c(C)n2Cc2cccnc2)c(-c2ccc(Cl)cc2)c1[C@H](OC(C)(C)C)C(=O)O	IIIB		MTT	0.015 µM
CCc1c(Cc2ccccc2C)n(COCC#CC2c3ccccc3-c3ccccc32)c(=O)[nH]c1=O	IIIB	EFV-resistant (K103R V179D P225H)	MTT	>50 µM
C=CCNc1nc(-c2ccc(S(=O)(=O)N(CC(C)C)C[C@@H](O)[C@H](Cc3ccccc3)NC(=O)COc3c(C)cccc3C)cc2)cs1	LAI		cytopathic effect / MTT	7.943 µM
O=C1c2c(O)c(=O)n(CC3COCCN3Cc3ccccc3)c(=O)n2CCN1Cc1ccc(F)cc1			p24	<10 µM
CC(=O)Nc1nc2ccc(S(=O)(=O)N(CC(C)C)C[C@@H](O)[C@H](Cc3ccccc3)NC(=O)OC3COC4OCCC34)cc2[nH]1	LAI WT		cytopathic effect / MTT	0.2 µM
CC1(C)c2nc(C(=O)NCc3ccc(F)cc3)c(O)c(=O)n2CCN1Cc1ccccn1			p24	<1 µM
CC(=O)N1CCCC(n2c(=O)c(O)c3n(c2=O)CCN(Cc2ccc(F)cc2)C3=O)C1			p24	<10 µM
CCc1c(Cc2cc(C)cc(C)c2)n(COCC#Cc2ccccc2)c(=O)[nH]c1=O	IIIB	Y181C	MTT	2 µM
CC(C)n1c(=O)c(O)c2n(c1=O)CCN(Cc1ccc3ccccc3c1)C2=O			p24	<10 µM
CC(C)CN(C[C@@H](O)[C@H](Cc1ccccc1)NC(=O)O[C@H]1CO[C@H]2OCC[C@H]21)S(=O)(=O)c1ccc(-c2nc(N)nc(N)n2)cc1	LAI		cytopathic effect / MTT	1 µM
Cc1nc2c(c(C)c(C)n2CCCC#N)c(-c2ccc(Cl)cc2)c1[C@H](OC(C)(C)C)C(=O)O	IIIB		MTT	0.0062 µM
Cc1cccc(C)c1OCC(=O)N[C@@H](Cc1ccccc1)[C@H](O)CN(CC(C)C)S(=O)(=O)c1ccc(-c2ccnn2C)cc1	LAI		cytopathic effect / MTT	1.259 µM
CCc1c(Cc2ccccc2C)n(COCC#Cc2cccc3ccccc23)c(=O)[nH]c1=O	IIIB	Y181C	MTT	>34 µM
CN(C)C(=O)C(=O)N(C)C1CN(C2CC2)CCn2c1nc(C(=O)NCc1ccc(F)c(Cl)c1)c(O)c2=O			p24	<1 µM
CC(C)CN(C[C@@H](O)[C@H](Cc1ccccc1)NC(=O)O[C@H]1CCOC1)S(=O)(=O)c1ccc2ncn(CC(C)C)c2c1	LAI WT		cytopathic effect / MTT	0.02 µM
CC(C)n1c(=O)c(O)c2n(c1=O)CCN(Cc1ccc(F)c(Cl)c1)C2=O			p24	<10 µM
CC(C)CN(C[C@@H](O)[C@H](Cc1ccccc1)NC(=O)O[C@H]1CO[C@H]2OCC[C@H]21)S(=O)(=O)c1ccc2ncn(Cc3ccccc3)c2c1	LAI WT		cytopathic effect / MTT	0.001 µM
CC(=O)OC(c1ccccc1)c1nc(-c2ccc(S(=O)(=O)N(CC(C)C)C[C@@H](O)[C@H](Cc3ccccc3)NC(=O)O[C@H]3CO[C@H]4OCC[C@H]43)cc2)co1	LAI		cytopathic effect / MTT	0.005 µM
CN1C(=O)CN2CCn3c(nc(C(=O)NCc4ccc(F)cc4)c(O)c3=O)C1C2			p24	<50 µM
Cc1nc2c(c(C)c(C)n2CCC#N)c(-c2ccc(Cl)cc2)c1[C@@H](OC(C)(C)C)C(=O)O	IIIB		MTT	0.286 µM
CC(C)CN(C[C@@H](O)[C@H](Cc1ccccc1)NC(=O)O[C@H]1CO[C@H]2OCC[C@H]21)S(=O)(=O)c1ccc(-c2coc(-c3ccc4c(c3)OCO4)n2)cc1	LAI		cytopathic effect / MTT	0.016 µM

A second listing of 3 rows from above:

smiles	strain	mutations	method	value
CNc1nc(-c2ccc(S(=O)(=O)N(CC(C)C)C[C@@H](O)[C@H](Cc3ccccc3)NC(=O)COc3c(C)cccc3C)cc2)cs1	LAI		cytopathic effect / MTT	1.259 µM
CCc1c(Cc2ccccc2C)n(COCC#CC2c3ccccc3-c3ccccc32)c(=O)[nH]c1=O	IIIB	EFV-resistant (K103R V179D P225H)	MTT	>50 µM
CCc1c(Cc2cc(C)cc(C)c2)n(COCC#Cc2ccccc2)c(=O)[nH]c1=O	IIIB	Y181C	MTT	2 µM